# Experimental data: publication PMC9821907, “Synthesis and Antiprotozoal Activity of Azabicyclo-Nonane Pyrimidine Hybrids” (Molecules, 2022)
# Values joined by “and” are separate entries in the source; they are usually repeats but may differ in a detail not shown here. Equal values may be shown once.
# Columns and labels:
# [1] = tested on: P. falciparum NF54; test: In vitro microplate 3H-hypoxanthine incorporation assay against P. falciparum NF54; assay type: cell-based, Plasmodium falciparum; details: L-6 cytotoxicity versus P. falciparum NF54
# Procedure: (§1) Compounds were tested for their activities against Plasmodium falciparum NF54 (sensitive to chloroquine) and Trypanosoma brucei rhodesiense STIB900, via serial dilution assays. Furthermore, selected compounds were tested against the K1 strain of Plasmodium falciparum (resistant against chloroquine, sulfadoxine and pyrimethamine). Their cytotoxicity was determined with rat skeletal myoblasts (L-6 cells).
# (§2) In vitro activity against erythrocytic stages of P. falciparum was determined using a ^3H-hypoxanthine incorporation assay using the drug sensitive NF54 strain [27] or the chloroquine- and pyrimethamine-resistant K1 strain [28]. Compounds were dissolved in DMSO at 10 mg/mL and further diluted in medium before being added to parasite cultures incubated in RPMI 1640 medium without hypoxanthine, supplemented with HEPES (5.94 g/L), NaHCO3 (2.1 g/L), neomycin (100 U/mL), Albumax® (5 g/L) and washed human red cells A+ at 2.5% haematocrit (0.3% parasitaemia). Serial drug dilutions of eleven 3-fold dilution steps covering a range from 100 to 0.002 μg/mL were prepared. The 96-well plates were incubated in a humidified atmosphere at 37 °C; 4% CO2, 3% O2, 93% N2. After 48 h, 0.05 mL of ^3H-hypoxanthine (= 0.5 μCi) was added to each well of the plate. The plates were incubated for a further 24 h under the same conditions. The plates were then harvested with a Betaplate™ cell harvester (Wallac, Zurich, Switzerland), and the red blood cells transferred onto a glass fibre filter then washed with distilled water. The dried filters were inserted into a plastic foil with 10 mL of scintillation fluid, and counted in a Betaplate™ liquid scintillation counter (Wallac, Zurich, Switzerland). IC50 values were calculated from sigmoidal inhibition curves by linear regression using Microsoft Excel. Chloroquine (Sigma C6628) was used as control.
# [2] = tested on: T. brucei rhodesiense STIB900; test: In vitro microplate resazurin assay against T. brucei rhodesiense; assay type: cell-based, Trypanosoma brucei rhodesiense; details: L-6 cytotoxicity versus T. b. rhodesiense
# Procedure: as §1
# Minimum essential medium (50 µL) supplemented with 25 mM HEPES, 1g/L additional glucose, 1% MEM non-essential amino acids (100×), 0.2 mM 2-mercaptoethanol, 1mM Na-pyruvate and 15% heat-inactivated horse serum was added to each well of a 96-well microtiter plate. Serial drug dilutions of eleven 3-fold dilution steps covering a range from 100 to 0.002 μg/mL were prepared. Then 4 × 10^3 bloodstream forms of T. b. rhodesiense STIB 900 in 50 µL was added to each well and the plate incubated at 37 °C under a 5 % CO2 atmosphere for 70 h. Next, 10 µL resazurin solution (resazurin, 12.5 mg in 100 mL double-distilled water) was added to each well and incubation continued for a further 2–4 h. Then the plates were read with a Spectramax Gemini XS microplate fluorometer (Molecular Devices Cooperation, Sunnyvale, CA, USA) using an excitation wave length of 536 nm and an emission wave length of 588 nm. Data were analyzed with the graphic programme Softmax Pro (Molecular Devices Cooperation, Sunnyvale, CA, USA), which calculated IC50 values by linear regression and 4-parameter logistic regression from the sigmoidal dose inhibition curves. Melarsoprol (Arsobal Sanofi-Aventis, received from WHO) was used as control.
# [3] = tested on: P. falciparum K1; test: In vitro microplate 3H-hypoxanthine incorporation assay against P. falciparum K1; assay type: cell-based, Plasmodium falciparum; details: L-6 cytotoxicity versus P. falciparum K1
# Procedure: as §1, §2
Compound,S.I. = IC50 (Cyt.)/IC50 (P.f.NF54) [1],S.I. = IC50 (Cyt.)/IC50 (T.b.r.) [2],S.I. = IC50 (Cyt.)/IC50 (P.f.K1) [3]
"Cc1cc(N2CCC3(N4CCCC4)C[C@H](c4ccccc4)C2[C@@H](c2ccccc2)C3)nc(N2CCCCC2)n1 (racemic) [Compound 22, rac-(7R,8R)-2-[6-methyl-2-(piperidin-1-yl)pyrimidin-4-yl]-7,8-diphenyl-5-(pyrrolidin-1-yl)-2-azabicyclo[3.2.2]nonane]",16.58,62.90–158.4 and 62.90,–
"Cc1cc(N2CCC3(N4CCCCC4)C[C@H](c4ccccc4)C2[C@@H](c2ccccc2)C3)nc(N2CCCCC2)n1 (racemic) [Compound 21, rac-(7R,8R)-2-[6-methyl-2-(piperidin-1-yl)pyrimidin-4-yl]-7,8-diphenyl-5-(piperidin-1-yl)-2-azabicyclo[3.2.2]nonane]",22.06,11.89,–
"Cc1cc(N2CCC3(N4CCCC4)C[C@H](c4ccccc4)C2[C@@H](c2ccccc2)C3)nc(N2CCCC2)n1 (racemic) [Compound 18, rac-(7R,8R)-2-[6-methyl-2-(pyrrolidin-1-yl)pyrimidin-4-yl]-7,8-diphenyl-5-(pyrrolidin-1-yl)-2-azabicyclo[3.2.2]nonane]",110.7,–,254.5
"Cc1cc(N2CCC3(N4CCCCC4)C[C@H](c4ccccc4)C2[C@@H](c2ccccc2)C3)nc(Cl)n1 (racemic) [Compound 13, rac-(7R,8R)-2-(2-chloro-6-methylpyrimidin-4-yl)-7,8-diphenyl-5-(piperidin-1-yl)-2-azabicyclo[3.2.2]nonane]",4.47,2.00,5.45
"Cc1cc(N2CCC3(N4CCCC4)CC(c4ccccc4)C2C(c2ccccc2)C3)nc(N)n1 (racemic) [Compound 6, rac-4-[(7R,8R)-7,8-diphenyl-5-(pyrrolidin-1-yl)-2-azabicyclo[3.2.2]nonan-2-yl]-6-methylpyrimidin-2-amine]",142.5,62.90–158.4 and 77.89,–
"Cc1cc(N2CCC3(N4CCCCC4)C[C@H](c4ccccc4)C2[C@@H](c2ccccc2)C3)nc(N2CCCC2)n1 (racemic) [Compound 17, rac-(7R,8R)-2-[6-methyl-2-(pyrrolidin-1-yl)pyrimidin-4-yl]-7,8-diphenyl-5-(piperidin-1-yl)-2-azabicyclo[3.2.2]nonane]",37.65,40.40,–
"Nc1cc(N2CCC3(N4CCCC4)CC(c4ccccc4)C2C(c2ccccc2)C3)nc(N)n1 (racemic) [Compound 10, rac-6-[(7R,8R)-7,8-diphenyl-5-(pyrrolidin-1-yl)-2-azabicyclo[3.2.2]nonan-2-yl]pyrimidine-2,4-diamine]",142.5,13.20,52.19
"Nc1cc(N2CCC3(N4CCCCC4)CC(c4ccccc4)C2C(c2ccccc2)C3)nc(N)n1 (racemic) [Compound 9, rac-6-[(7R,8R)-7,8-diphenyl-5-(piperidin-1-yl)-2-azabicyclo[3.2.2]nonan-2-yl]pyrimidine-2,4-diamine]",190.8,6.24,103.6–155.6 and 103.6
"Cc1cc(N2CCC3(N4CCCC4)C[C@H](c4ccccc4)C2[C@@H](c2ccccc2)C3)nc(Cl)n1 (racemic) [Compound 14, rac-(7R,8R)-2-(2-chloro-6-methylpyrimidin-4-yl)-7,8-diphenyl-5-(pyrrolidin-1-yl)-2-azabicyclo[3.2.2]nonane]",9.25,5.86,26.30
"Cc1cc(N2CCC3(N4CCCCC4)CC(c4ccccc4)C2C(c2ccccc2)C3)nc(N)n1 (racemic) [Compound 5, rac-4-[(7R,8R)-7,8-diphenyl-5-(piperidin-1-yl)-2-azabicyclo[3.2.2]nonan-2-yl]-6-methylpyrimidin-2-amine]",50.2,3.22,–
